## Positions that govern dimerization of the HIV-1 5' RNA

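Randomly mutated transcripts starting with one, two or three G (1G, 2G, 3G), capped or uncapped, were folded for 30 min at 37 °C. High salt was 300 mM KCl and 5 mM MgCl2, low salt 40 mM KCl and 0.1 mM MgCl2; monomer and dimer were parted on a native gel. Kdimer compares mutation frequencies in monomer and dimer, corrected for sequencing errors.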

Sequence of the HIV-1 NL4-3 5' RNA, positions 1 to 437, as numbered in the source:
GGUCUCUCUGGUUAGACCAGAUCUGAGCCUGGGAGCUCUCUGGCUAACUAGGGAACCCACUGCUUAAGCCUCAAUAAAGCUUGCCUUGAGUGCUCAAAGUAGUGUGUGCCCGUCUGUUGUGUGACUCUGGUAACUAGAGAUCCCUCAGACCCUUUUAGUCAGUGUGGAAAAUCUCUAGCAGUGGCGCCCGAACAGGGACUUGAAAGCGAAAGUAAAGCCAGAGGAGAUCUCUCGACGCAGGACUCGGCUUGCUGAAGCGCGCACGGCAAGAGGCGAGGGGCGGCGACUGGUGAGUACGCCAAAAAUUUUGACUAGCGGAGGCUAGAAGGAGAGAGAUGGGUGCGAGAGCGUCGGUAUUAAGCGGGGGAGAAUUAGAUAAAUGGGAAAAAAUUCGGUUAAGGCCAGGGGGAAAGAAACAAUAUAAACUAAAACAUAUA

Scale: median log2 Kdimer over the changes at a position; positive = changes inhibit dimerization, negative = changes enhance it.
One numbering serves 1G, 2G and 3G.
A position is written with its base.

U176 read 1G capped low-salt 0.05; 3G uncapped low-salt 0.03. A177 read 1G capped low-salt -0.71; 3G uncapped low-salt -0.43. G178 gave 1G capped low-salt 0.18; 3G uncapped low-salt 0.22. For C179 the result was 1G capped low-salt -0.33; 3G uncapped low-salt -0.36. A180 gave 1G capped low-salt -0.16; 3G uncapped low-salt -0.21. G181 gave 1G capped low-salt -0.52; 3G uncapped low-salt -0.77. With U182 the assay gave 1G capped low-salt 0.23; 3G uncapped low-salt 0.78. G183 gave 1G capped low-salt 0.12; 3G uncapped low-salt -0.03. With G184 the assay gave 1G capped low-salt 0.27; 3G uncapped low-salt 0.89.

For C185 the result was 1G capped low-salt -0.28; 3G uncapped low-salt -0.42. For G186 the result was 1G capped low-salt -0.42; 3G uncapped low-salt -0.37. C187 read 1G capped low-salt -0.19; 3G uncapped low-salt -0.22. For C188 the result was 1G capped low-salt 0.30; 3G uncapped low-salt 0.79. C189 read 1G capped low-salt 0.14; 3G uncapped low-salt 0.23. G190 read 1G capped low-salt 0.16; 3G uncapped low-salt 0.39. A191 read 1G capped low-salt -0.13; 3G uncapped low-salt -0.10.

From the data files of Ye et al. 2022, doi:10.1038/s41594-022-00746-2.